Pooled drug test results. Numbers come from NIAID ChemDB, via PubChem.

All rows: growth or infection tests; organism: Candida krusei

ECn is the concentration giving n% inhibition of infection, replication or growth. An empty or dashed field is not shown. Two numbers with a dash give a range or band. MIC50, MIC90 and the like: level of inhibition, or share of isolates inhibited. Zone: diameter of growth inhibition. Rows are shuffled and stem from different studies.

SMILES,strain or isolate,method,setting,measure,dose,result
C=CC(C)(O)CCCC=C(C)C,-,-,-,MIC90,-,0.025–0.031 µg/mL
Cc1ccc(C(C)C)cc1,-,broth dilution,-,MIC,-,22600 µg/mL
O=[N+]([O-])c1cc(C[Se]c2nnnn2C2CCCCC2)cc([N+](=O)[O-])c1,E28,broth dilution,48 h,EC80,-,>500 µM
C[C@@H]1[C@H](O)[C@@H](C)/C=C/C=C/C=C/C=C/C=C/C=C/C=C/[C@H](O[C@@H]2O[C@H](C)[C@@H](O)[C@H](N)[C@@H]2O)C[C@@H]2O[C@](O)(C[C@@H](O)C[C@@H](O)[C@H](O)CC[C@@H](O)C[C@@H](O)CC(=O)O[C@H]1C)C[C@H](O)[C@H]2C(=O)O,ATCC 40147,broth dilution,-,MIC100,-,>1024 µg/mL
O=Cc1cc(O)ccc1O,PYCC 3341,broth dilution / turbidity,-,EC50,-,0.82 µM
C[C@H]1[C@H](O)[C@@H](C)/C=C/C=C/C=C/C=C/C=C/C=C/C=C/[C@H](O[C@@H]2O[C@H](C)[C@@H](O)[C@H](N)[C@@H]2O)C[C@@H]2O[C@](O)(C[C@@H](O)C[C@@H](O)CC[C@H](O)[C@@H](O)C[C@@H](O)CC(=O)O[C@H]1C)C[C@H](O)[C@H]2C(=O)O,17 isolates,-,-,MIC50,-,2 µg/mL
CC(C)=CCOc1ccc(C2CC(=O)c3ccc(O)cc3O2)cc1,-,agar diffusion / agar,-,zone,100 µg/mL,0 mm
O=[N+]([O-])c1ccc(C[Se]c2nnnn2C2CCCCC2)c([N+](=O)[O-])c1,E28,broth dilution,48 h,EC80,-,>500 µM
Clc1ccc(COC(Cn2ccnc2)c2ccc(Cl)cc2Cl)c(Cl)c1,ATCC 40147,broth dilution,-,MFC100,-,32 µg/mL
C=CCSS(=O)CC=C,-,broth dilution,-,MIC,-,80 µg/mL
Cc1cccc(O)c1,-,broth dilution,-,MIC,-,850 µg/mL
O=C(O)c1ccccc1O,PYCC 3341,broth dilution / turbidity,-,EC50,-,0.2 µM
COc1ccccc1O,-,broth dilution,-,MIC,-,10 µg/mL
O=[N+]([O-])c1cc(CSc2cccc[n+]2[O-])cc([N+](=O)[O-])c1,E28,broth dilution,24 h,EC80,-,>500 µM
C[C@H]1[C@H](O)[C@@H](C)/C=C/C=C/C=C/C=C/C=C/C=C/C=C/[C@H](O[C@@H]2O[C@H](C)[C@@H](O)[C@H](N)[C@@H]2O)C[C@@H]2O[C@](O)(C[C@@H](O)C[C@@H](O)CC[C@H](O)[C@@H](O)C[C@@H](O)CC(=O)O[C@H]1C)C[C@H](O)[C@H]2C(=O)O,CBS 573,broth dilution,-,MIC,-,0.15 µg/mL
O=Cc1cccc(O)c1O,PYCC 2241,broth dilution / turbidity,-,EC50,-,0.08 µM
O=[N+]([O-])c1cc(CSc2nnnn2-c2ccc(Cl)c(Cl)c2)cc([N+](=O)[O-])c1,E28,broth dilution,24 h,EC80,-,>125 µM
COc1cc(O)c2c(c1)OC(c1ccc(O)cc1)CC2=O,Clinical isolate,broth dilution,clinical isolate,MIC,-,630 µg/mL
COc1ccc2cc3[n+](cc2c1OC)CCc1cc2c(cc1-3)OCO2,-,broth dilution,-,MIC,-,20 µg/mL
C/C=C/Cc1ccc(OC)cc1,-,broth dilution,-,MIC,-,590 µg/mL
CC(C)CCOc1ccc(C2CC(=O)c3c(O)cc(O)cc3O2)cc1,-,agar diffusion / agar,-,zone,100 µg/mL,0 mm
CCCCCCCCOc1ccc(-c2ccc(C(=O)NC3CC(NCCN)CNC(=O)[C@@H]4[C@@H](O)[C@@H](C)CN4C(=O)[C@@H](CO)NC(=O)[C@H]([C@H](O)Cc4ccccc4)NC(=O)[C@@H]4C[C@@H](O)CN4C(=O)[C@H]([C@@H](C)O)NC3=O)cc2)cc1,ATCC 6258,resazurin,-,MIC,-,5 µg/mL
COc1cc2oc(=O)ccc2cc1CC(O)C(C)(C)O,-,-,-,MIC,-,125 µg/mL
c1ccc([Se][Se]c2ccccc2)cc1,ATCC 6258,broth dilution,-,MIC,-,32 µg/mL
CCC(C)n1ncn(-c2ccc(N3CCN(c4ccc(OC[C@H]5CO[C@](Cn6cncn6)(c6ccc(Cl)cc6Cl)O5)cc4)CC3)cc2)c1=O,17 isolates,-,-,MIC90,-,2 µg/mL
Cc1ccc(C(C)C)cc1O,-,broth dilution,-,MIC,-,200 µg/mL
C[C@H](Cc1ccc(O)c(O)c1)[C@@H](C)Cc1ccc(O)c(O)c1,CCC 117-2000,broth dilution,-,MIC80,-,500 µg/mL
O=[N+]([O-])c1cc(CSc2nnnn2C2CCCCC2)cc([N+](=O)[O-])c1,E28,broth dilution,48 h,EC80,-,>500 µM
COc1cc(C=O)ccc1O,-,broth dilution,-,MIC,-,260 µg/mL

4 of the rows above, restated:

| SMILES | strain or isolate | method | setting | measure | dose | result |
|---|---|---|---|---|---|---|
| C[C@H]1[C@H](O)[C@@H](C)/C=C/C=C/C=C/C=C/C=C/C=C/C=C/[C@H](O[C@@H]2O[C@H](C)[C@@H](O)[C@H](N)[C@@H]2O)C[C@@H]2O[C@](O)(C[C@@H](O)C[C@@H](O)CC[C@H](O)[C@@H](O)C[C@@H](O)CC(=O)O[C@H]1C)C[C@H](O)[C@H]2C(=O)O | 17 isolates | - | - | MIC50 | - | 2 µg/mL |
| O=Cc1cc(O)ccc1O | PYCC 3341 | broth dilution / turbidity | - | EC50 | - | 0.82 µM |
| Cc1cccc(O)c1 | - | broth dilution | - | MIC | - | 850 µg/mL |
| O=[N+]([O-])c1cc(C[Se]c2nnnn2C2CCCCC2)cc([N+](=O)[O-])c1 | E28 | broth dilution | 48 h | EC80 | - | >500 µM |